According to patent publication US20200345733A1, “Microbicidal Pyrimidine or Triazine Containing Compounds” (Janssen Sciences Ireland UC, priority 2002, published 2020):

Tested on: HIV Ba-L
Assay: Prevention of HIV Ba-L infection in MO-DC/CD4(+) T cell co-cultures (ELISA, secondary culture, PCR)
Assay type: cell-based
Procedure: For experiments with CEM T cells, we used the lymphotropic SI/X4 HIV strain HTLV-IIIB, originally obtained from R. C. Gallo and M. Popovic (NIH, Bethesda, Md.). For experiments with monocyte-derived dendritic cells (MO-DC), the monotropic NSI/R5 HIV strain Ba-L, kindly provided by the NIH AIDS Research and Reference Reagent Program (Rockville, Md) was used. Ba-L stocks were grown and tittered on PHA/IL-2-stimulated peripheral blood mononuclear cells (PBMC) in complete medium, containing RPMI-1640 (Bio-Whittaker, Verviers, Belgium) and 10% bovine calf serum (Hyclone, Utah, US) (Peden K. Virological and Molecular Genetic Techniques for Studies of Established HIV Isolates. 1995, 21-45). The supernatant of these cultures were directly used as cell-free virus to infect MO-DC. To prepare cell-associated HIV Ba-L, non-stimulated PBMC (2×10^6 cells/ml) were incubated overnight with 10^−2 MOI (=multiplicity of infection) of HIV Ba-L in complete medium. Afterwards, cells were extensively washed, frozen in liquid nitrogen and thawed on the day of infection.
HIV antigen was detected using an in-house developed ELISA assay, of which the characteristics have been described (Beirnaert E, Willems B, Peeters M, Bouckaert A, Heyndrickx L, Zhong P et al. Design and Evaluation of an in-House HIV-1 (Group M and O), SIVmnd and SIVcpz Antigen Capture Assay. J Virol Methods 1998, 73: 65-70). The lower detection limit is about 200 pg/ml and the upper limit is about 25,000 pg/ml, as determined using a standard curve of Ba-L stock dilutions with known p24 content. The 50% Effective Concentration (EC50) was calculated by plotting HIV Ag concentration against drug concentration, followed by regression analysis on the linear part of the curve,
Cell-free HIV Ba-L was pre-incubated with a serial dilution of drug, ranging from 10,000 to 0.1 nM (final concentration), for 1 hour at 37° C. MO-DC were infected with drug-treated HIV at a multiplicity of infection (MOI) of 10^−3. After 2 hours (at 37° C.), MO-DC were washed (6×) and suspended at 4×10^5 cells/ml. 50 μl of MO-DC were dispensed in a 96-well cup, together with 50 μl of autologous CD4(+) T cells (2×10^6 cells/ml) and 100 μl of complete medium or 100 μl of drug (at the same concentration as for the pre-incubation). Half of the culture medium was refreshed twice weekly with complete medium, with or without drug. After 2 weeks of primary culture, supernatants were analysed by ELISA and cells were used for secondary cultures to check viral rescue. […]
To evaluate the effect of a 24-hours treatment, MO-DC and autologous CD4(+) T cells were suspended in complete medium at 4×10^4, resp. […] After 2 weeks of primary culture, supernatants were analysed by ELISA and cells were used for secondary cultures to check viral rescue. […]

With `Cc1cc(C)c(Nc2ccnc(Nc3ccc(C#N)cc3)n2)c(C)c1` [compound B, 4-[[4-[(2,4,6-trimethylphenyl)amino]-2-pyrimidinyl]amino]benzonitrile] the “TI (Therapeutic Index: ISC50/EC50)” value (24 hours treatment, Cell-associated HIV) was 395, the “TI (Therapeutic Index: ISC50/EC50)” value (24 hours treatment, Cell-free HIV) was 592 and the “TI (Therapeutic Index: ISC50/EC50)” value (Continuous treatment, Cell-associated HIV) was >1,515. The “TI (Therapeutic Index: ISC50/EC50)” value (Continuous treatment, Cell-free HIV) was >15,150.
